Laboratory results from patent US20230113734A1 (CELLTRION, published 2023).

Key:
[1] = molecular target: T1, SARS-CoV-2 S protein (spike protein) (SARS-CoV-2, UniProt P0DTC2 16-1213); assay: ELISA, S proteins on plate
[2] = molecular target: T1, SARS-CoV-2 S protein (spike protein)

| Binder | Binding ability [1] | Binding ability [2] |
| --- | --- | --- |
| No. 3 scFv-Fc antibody fragment (scFv, V domains shown) VH: not shown VL: ELVMTQSPSSLSASVGDRVTITCQASQDISNYLNWYQQKPGKAPKLLIYDASNLETGVPSRFSGSGSGTDFTFTISSLQPEDIATYYCQQYDNLPITFGQGTRLEIK | 1.48 relative to positive control antibody |  |
| No. 263 scFv-Fc antibody fragment (scFv, V domains shown) VH: EVQLVESGGGLVQPGRTLRLSCAASGFTFDDYAMHWVRQPPGKGLEWVSGIDWNSGLIGYADAVKGRFTLSRDNAKNSIFLQMNSLRAEDTALYYCVKDMGSTGGYYGMDVWGQGTTVTVSS VL: ELVLTQPPSVSAAPGQKVTISCSGSSPNIGNNYVSWYQQLPGTAPKLLIYDNNKRPSGIPDRFSGSKSGTSATLGITGLQTGDEADYYCGTWDSSLSAYVFGTGTKLTVL | 1.46 relative to positive control antibody |  |
| No. 197 scFv-Fc antibody fragment (scFv, V domains shown) VH: QVQLVQSGAEVKKPGSSVKVSCEASGGTFSSYAISWVRQAPGQGLEWMGGIIPILGIANYAQKFQGRVTITADKSTSTAYMELSSLRSEDTAVYYCARVRGYSGYGSTYYFDYWGQGTLVTVSS VL: ELVLTQPPSVSGAPGQRVTISCTGSSSNIGAGYDVHWYQQFPGTAPKLLIYGNSNRPSGVPDRFSGSKSGTSASLAITGLQAEDEADYYCQSYDSSLSGSIFGGGTKLTVL |  | 2.09 relative to positive control antibody |
| No. 212 scFv-Fc antibody fragment (scFv, V domains shown) VH: EVQLVQSGGGVVRPGRSLRLSCAASGFTFSNFAMHWVRQAPGKGLEWVAVISYDGSNKYYADSVKGRFTISRDNSKNTLYLQMNSLRPEDTAVYYCARGDYYGSGSYYNPSPFFDYWGQGTLVTVSS VL: not shown |  | 1.56 relative to positive control antibody |
| No. 236 scFv-Fc antibody fragment (scFv, V domains shown) VH: EVQLLESRGGVVQPGRSLRLSCAASGFTFSTYSMHWVRQAPGKGLEWVAVISYDGSNKYYADSVKGRFTISRDNSKNTLYLQMNSLRAEDTAVYYCARGDYYGSGSYYNPSPFFDYWGQGTLVTVSS VL: ELVLTQPPSASGTPGQRVTISCSGSSSNIGSNTVNWYQQLPGTAPKLLIYSNNQRPSGVPDRFSGSKSGTSASLAISGLQPEDEADYYCGTWDSNSETWVFGGGTKLTVL | 1.5 relative to positive control antibody |  |
| No. 239 scFv-Fc antibody fragment (scFv, V domains shown) VH: EVQLVESGGGLVQPGGSLRLSCAASGFTFSNFAMHWVRQAPGKGLEWVAVISYDGSNKYYADSVKGRFTISRDNSKNTLYLQMNSLRAEDTAVYYCARGDYYGSGSYYNPSPFFDYWGQGTLVTVSS VL: DLVLTQPPSASGTPGQRVTMSCSGSSSNIGSKTVNWYQQLPGTAPKLLIYSNNQRPSGVPDRFSGSKSGTSASLAISGLRSEDEADYYCAAWDDSLSGWVFGGGTQLTVL |  | 1.45 relative to positive control antibody |
| No. 249 scFv-Fc antibody fragment (scFv, V domains shown) VH: not shown VL: ELELTQPPSVSVAPGKTARITCGGNNIGSKSVHWYQQKPGQAPVLVIYYDSDRPSGIPERFSGSNSGNTATLTISRVEAGDEADYYCQVWDGSSDHYVFGTGTKVTVL | 0.34 relative to positive control antibody |  |

Read-outs that look alike come from different tables or passages of the source.
